Anti-infective test results gathered from many reports (values: NIAID ChemDB through PubChem).

Common to all: cytotoxicity tests; cell line: Jurkat cells; measure: CC50

Lines come from different laboratories, so protocols vary. CCn is the concentration with n% toxicity to the cells.

Cc1cc(N)c2ccccc2[n+]1CCCCCCCCCC[n+]1c(C)cc(N)c2ccccc21 ; method: luminescence ; result: 0.3 µM
CCCCCCCCCCCCCCCC(=O)OCC(CO)(CO)NC(=O)CNC(=O)CCC(=O)OC[C@H]1O[C@@H](n2cc(C)c(=O)[nH]c2=O)C[C@@H]1N=[N+]=[N-] ; result: 43 µM
NC(=O)c1cc2c(-c3ccc4c(c3)CCO4)cncc2s1 ; method: MTT ; result: 19.2 µM
C=C(C)[C@@H]1CC[C@]2(C)CC[C@]3(C)[C@H](CC[C@@H]4[C@@]5(C)CC[C@H](OC(C)=O)C(C)(C)[C@@H]5CC[C@]43C)[C@@H]12 ; method: MTT / absorbance ; result: >100 µM
O=C(N[C@@H](Cc1ccccc1)C(=O)CCl)OCc1ccccc1 ; method: luminescence ; result: 1.9 µM
NC(=O)c1sc2cncc(N3CCCCC3)c2c1N ; method: MTT ; result: 41.4 µM
Cc1cc(=O)c2ccc(N=C=S)cc2o1 ; method: MTT ; result: 9.95 µM
COc1cc2c(c(OC)c1OC)-c1c(cc(OC)c(OC)c1OC)C[C@H](C)[C@H](C)C2 ; method: MTT ; result: 20 µM
CCCCCCCCCCCCCCCC(=O)OCC(CO)(CO)NC(=O)CNC(=O)CCCc1ccc(C(CCCl)CCCl)cc1 ; result: 6.5 µM
C[n+]1cc2c3c(ccc2c2ccc4cc5c(cc4c21)OCO5)OCO3 ; method: luminescence ; result: 7.3 µM
Nc1nc(=O)n([C@H]2CO[C@@H](CO)S2)cc1F ; result: >500 µM
COc1ccc(C=O)cc1O ; method: MTT / absorbance ; result: >100 µM
O=C1C=C2C(=CCOC2O)O1 ; method: luminescence ; result: 1 µM
CS(=O)CCCCN=C=S ; method: MTT ; result: 9.95 µM
C=C(C)[C@@H]1CC[C@]2(C)CCC3(C)[C@H](CC[C@@H]4[C@@]5(C)CC[C@H](O)C(C)(C)[C@@H]5CC[C@]43C)[C@@H]12 ; method: MTT / absorbance ; result: >100 µM
CC[C@@H](C(=O)[C@@H](C)[C@@H](O)[C@H](C)CCc1ccc(C)c(O)c1C(=O)O)[C@H]1O[C@](CC)([C@H]2CC[C@](O)(CC)[C@H](C)O2)C[C@@H]1C ; method: luminescence ; result: 0.9 µM
Nc1ccn([C@@H]2CO[C@H](CO)S2)c(=O)n1 ; result: 11 µM

For reference, 2 entries again:

structure | method | result
C[n+]1cc2c3c(ccc2c2ccc4cc5c(cc4c21)OCO5)OCO3 | luminescence | 7.3 µM
CC[C@@H](C(=O)[C@@H](C)[C@@H](O)[C@H](C)CCc1ccc(C)c(O)c1C(=O)O)[C@H]1O[C@](CC)([C@H]2CC[C@](O)(CC)[C@H](C)O2)C[C@@H]1C | luminescence | 0.9 µM